Legend:
[1] = Cytotoxicity against HIV2 ROD infected human MT4 cells by MTT assay; type: cell-based; conditions: MT4 cells infected with HIV-2 ROD
Outline: (§1)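 MT-4 cells (3 × 10^4 per well) were cultured in microdilution trays with various concentrations of compound, then incubated 5 days at 37 °C, and viable cell number was read by MTT.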

[2] = Cytotoxicity against HIV1 3B-infected human MT4 cells by MTT assay; type: cell-based; conditions: MT4 cells infected with HIV-1 3B; outline: as §1

## COc1cc(/C=C/C(=O)CC(=O)/C=C/c2ccc(O)c(OC)c2)ccc1O [CURCUMIN]
[1]
  CC50: > 37 nM
[2]
  CC50: > 37 nM
